Anti-infective test results gathered from many reports (values: NIAID ChemDB through PubChem).

Common to all: growth or infection tests; organism: Candida parapsilosis

Neighbouring rows are from separate reports.

smiles,setting,endpoint,strain,read by,result
C[C@H]1[C@H](O)[C@@H](C)/C=C/C=C/C=C/C=C/C=C/C=C/C=C/[C@H](O[C@@H]2O[C@H](C)[C@@H](O)[C@H](N)[C@@H]2O)C[C@@H]2O[C@](O)(C[C@@H](O)C[C@@H](O)CC[C@H](O)[C@@H](O)C[C@@H](O)CC(=O)O[C@H]1C)C[C@H](O)[C@H]2C(=O)O,,MIC,ATCC 22019,MTT,1.5 µg/mL
O=C(O)c1ccccc1O,,EC50,PYCC 2545,broth dilution / turbidity,0.25 µM
COc1ccc2cc3[n+](cc2c1OC)CCc1cc2c(cc1-3)OCO2,,MIC,,broth dilution,80 µg/mL
C=CC(C)(O)CCCC=C(C)C,,MIC90,,,0.031 µg/mL
CCC(C)CC(C)CCCCCCCCC(=O)N[C@H]1C[C@@H](O)[C@H](NCCN)NC(=O)[C@@H]2[C@@H](O)CCN2C(=O)[C@H]([C@H](O)CCN)NC(=O)[C@H]([C@H](O)[C@@H](O)c2ccc(O)cc2)NC(=O)[C@@H]2C[C@@H](O)CN2C(=O)[C@H]([C@@H](C)O)NC1=O,,MIC,1856,broth dilution,1 µg/mL
CCCCCCCCOc1ccc(-c2ccc(C(=O)NC3CC(NCCN)CNC(=O)[C@@H]4[C@@H](O)[C@@H](C)CN4C(=O)[C@@H](CO)NC(=O)[C@H]([C@H](O)Cc4ccccc4)NC(=O)[C@@H]4C[C@@H](O)CN4C(=O)[C@H]([C@@H](C)O)NC3=O)cc2)cc1,,MIC,NEM_7103546,resazurin,5 µg/mL
CC(C)(C)[Si](C)(C)Oc1ccc(C2=CN3CCC2CC3)cc1,,EC50,ATCC 22019,broth dilution,>16 µg/mL
C[C@@H]1[C@H](O)[C@@H](C)/C=C/C=C/CC/C=C/C=C/C=C/C=C/C(O[C@H]2O[C@H](C)[C@@H](O)[C@H](N)[C@@H]2O)CC2O[C@](O)(CC(O)C(O)CCC(O)CC(O)CC(O)CC(=O)O[C@H]1C)CC(O)C2C(=O)O,,MIC,MTCC 1744,,150 µg/mL
COc1cc(C[C@H](C)[C@H](C)Cc2ccc(O)c(O)c2)ccc1O,,MIC50,CCC 124-2000,broth dilution,31.25 µg/mL
OC1(c2ccc(-c3ccccc3)cc2)CN2CCC1CC2,,EC50,ATCC 22019,broth dilution,>16 µg/mL
CN(C/C=C/C#CC(C)(C)C)Cc1cccc2ccccc12,biofilm,MIC100,ATCC 22019,broth dilution,50 µg/mL
O=c1cc(-c2ccccc2)oc2cc(O)c(O)c(O)c12,,MIC,ATCC 22019,,52 µg/mL
CN(C/C=C/C#CC(C)(C)C)Cc1cccc2ccccc12,,MIC50,52 clinical isolates,broth dilution,4 µg/mL
CCCC1=NOC(CCCCCCCCC(=O)OC)C1,,MIC100,Clinical isolate,agar,256 µg/mL
COc1cnc2c3c(nccc13)C1SC=CC1C2=O,,MIC80,,,>64 µg/mL
C[C@@H](c1ncncc1F)[C@](O)(Cn1cncn1)c1ccc(F)cc1F,,MIC50,52 clinical isolates,broth dilution,≤0.031 µg/mL
c1ccc([Se][Se]c2ccccc2)cc1,,MFC,ATCC 90018,broth dilution,>64 µg/mL
CCOC(=O)c1ccc(C2=CN3CCC2CC3)cc1,,EC50,ATCC 22019,broth dilution,>16 µg/mL
CCCCCCCCNC1CCc2ccc(O)cc2C1,,MIC,,,62 µM
C=CCc1ccc(O)c(-c2cc(CC=C)ccc2O)c1,,MIC,,broth dilution,80 µg/mL
O=C(O)c1ccccc1,,EC50,ATCC 22019,,0.09 µM
COc1ccc2cc(C3=CN4CCC3CC4)ccc2c1,,EC50,ATCC 22019,broth dilution,>16 µg/mL
Cc1ccc(C(C)C)c(O)c1,,EC50,PYCC 2545,broth dilution / turbidity,0.56 µM
C1=C(c2ccc(OCc3ccccc3)cc2)C2CCN1CC2,,EC50,ATCC 22019,broth dilution,8 µg/mL

2 of the rows above, restated:

CN(C/C=C/C#CC(C)(C)C)Cc1cccc2ccccc12 ; setting: biofilm ; endpoint: MIC100 ; strain: ATCC 22019 ; read by: broth dilution ; result: 50 µg/mL
O=C(O)c1ccccc1O ; endpoint: EC50 ; strain: PYCC 2545 ; read by: broth dilution / turbidity ; result: 0.25 µM

ECn is the concentration giving n% inhibition of infection, replication or growth. An empty or dashed field is not shown. MIC50, MIC90 and the like: level of inhibition, or share of isolates inhibited.